PubChem BioAssay AID504761 – Drosophila RNAi Screening Center – 2011

Aim: 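Fly genes whose silencing reduces dengue virus type 2 infection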 (primary screen)
Cell system: D.Mel-2 cells from Drosophila
Reagent: long dsRNA against Drosophila genes
Treatment: infection with dengue virus type 2; dose and infection time not stated
Measurement: 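Per well on two replicate plates, imaging gave the percent of cells positive for viral envelope protein, ranked by infection, and a nuclear count of cells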
Scale: infection score: higher = more virus-infected cells; cell count: higher = more cells in the well
Call rule: 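Very low infection ranking in both replicate wells (chance probability at most 0.065), then a retest showing infection dropped 1.5-fold or more at p below 0.05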
Calls: active = confirmed: knock-down lowers infection; inactive = not picked or not confirmed
The deposit covers about 22,000 reagents; this is an unselected part of those with a known target gene and a result. In the full data, 116 (0.52%) are marked active. 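Calls depend on retest data that are not deposited; infection was ranked per plate without normalising between plates; the unit of the infection score is not given.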 Raw values are not corrected between plates. Unmarked entries are inactive. Names joined by + are all predicted targets of the reagent. Not all columns of the deposit are shown. Not given: the amount of reagent, the time to read-out.

Cyp9b2 (Cytochrome P450 9b2) [DRSC07390]
- infection score, replicate 1: 7.16
- cell count, replicate 1: 6295

Cyp9b2 (Cytochrome P450 9b2) [DRSC24835]
- infection score, replicate 1: 4.35
- cell count, replicate 1: 6392

loco (locomotion defects) [DRSC15202]
- infection score, replicate 1: 2.47
- cell count, replicate 1: 5988

loco (locomotion defects) [DRSC16989]
- infection score, replicate 1: 3.75
- cell count, replicate 1: 6502

loco (locomotion defects) [DRSC27695]
- infection score, replicate 1: 14.6
- cell count, replicate 1: 6983

Ccp84Aa [DRSC12586]
- infection score, replicate 1: 11.5
- cell count, replicate 1: 3764

Ccp84Aa [DRSC25114]
- infection score, replicate 1: 1.34
- cell count, replicate 1: 6999

l(3)04053 (lethal (3) 04053) [DRSC11640]
- infection score, replicate 1: 5.18
- cell count, replicate 1: 5980

AsnS (Asparagine synthetase) [DRSC11468]
- infection score, replicate 1: 3.74
- cell count, replicate 1: 6598

CG3841 [DRSC02730]
- infection score, replicate 1: 18
- cell count, replicate 1: 2002

Jasper (JIL-1 anchoring and stabilizing protein) [DRSC16352]
- infection score, replicate 1: 9.27
- cell count, replicate 1: 1856

CG32248 [DRSC08102]
- infection score, replicate 1: 0.75
- cell count, replicate 1: 6358

CG32248 [DRSC25738]
- infection score, replicate 1: 3.7
- cell count, replicate 1: 6438

thr (three rows) [DRSC07706]
- infection score, replicate 1: 7.38
- cell count, replicate 1: 5259

Pdzd8 (PDZ domain containing 8) [DRSC19355]
- infection score, replicate 1: 5.53
- cell count, replicate 1: 5586

Pdzd8 (PDZ domain containing 8) [DRSC23702]
- infection score, replicate 1: 9.05
- cell count, replicate 1: 6080

CG34315 + Orc3 [DRSC07642]
- infection score, replicate 1: 5.82
- cell count, replicate 1: 6723

CG34315 + Orc3 [DRSC25371]
- infection score, replicate 1: 6.36
- cell count, replicate 1: 6113

CG11693 [DRSC14353]
- infection score, replicate 1: 5.68
- cell count, replicate 1: 6475

CG11693 [DRSC28503]
- infection score, replicate 1: 18
- cell count, replicate 1: 5755

CG14006 [DRSC02338]
- infection score, replicate 1: 0.64
- cell count, replicate 1: 6748

3 consecutive reagents already listed, for reference:
CG3841 [DRSC02730]
- infection score, replicate 1: 18
- cell count, replicate 1: 2002

Jasper (JIL-1 anchoring and stabilizing protein) [DRSC16352]
- infection score, replicate 1: 9.27
- cell count, replicate 1: 1856

CG32248 [DRSC08102]
- infection score, replicate 1: 0.75
- cell count, replicate 1: 6358
